Measured values from several laboratories, pooled; numbers as filed in NIAID ChemDB.

Common to all: tests in culture; agent: HIV-1; read-out: EC50

Lines come from different laboratories, so protocols vary. ECn is the concentration giving n% inhibition of infection, replication or growth. Blank or dashed fields: not listed here.

| smiles | strain | changes | read by | value |
|---|---|---|---|---|
| COc1cc2ccnc3c2c(c1OC(=O)c1ccc(C#N)cc1)N(C)C=C3 | - | - | - | 8.2 µM |
| C/C(=C\Cn1cnc2c(=O)[nH]cnc21)CO | - | - | - | 47.2 µg/mL |
| CN1CC(=O)C(=O)C=C1Cn1cnc([N+](=O)[O-])c1Nc1cc(Cl)cc(Cl)c1 | IIIB | - | MTT | 1.3 µM |
| Nc1ncnc2c1ncn2C/C=C(/CO)c1ccccc1 | - | - | - | >100 µg/mL |
| Cc1ccnc(SC(F)(F)c2nc3ccccc3o2)n1 | IIIB | - | - | 0.067 µM |
| CCCCCCCCCCCCCCCCOCCCOP(=O)(O)COCCn1cnc2c(=O)[nH]c(N)nc21 | - | - | plaque count | 0.001 µM |
| CN1C(c2cccc(Cl)c2Cl)c2ccccc2S1(=O)=O | - | - | p24 / RT activity | 0.039 µM |
| CC(C)=CCOC1(C(F)(F)F)OC(=O)Nc2ccc(F)c(F)c21 | - | - | - | <0.00154 µM |
| COc1cc2ccnc3c2c(c1OC(=O)c1ccccc1C)N(C)C=C3 | - | - | - | 1.3 µM |
| O=C1NC(=O)c2cc([N+](=O)[O-])c(Sc3c(Cl)cccc3Cl)cc21 | - | - | luminescence | 70 µM |
| O=C1Nc2ccc(Cl)cc2[C@@](C#CC2CC2)(C(F)(F)F)[C@H]1OCc1ccncc1 | - | RT-L100I | - | <0.023 µM |
| COc1ccc(N(CC(=O)NCCCc2ccccc2)S(=O)(=O)c2ccc(Cl)c([N+](=O)[O-])c2)cc1 | IIIB | N155H | - | 59 µM |
| CC(Cc1nc(-c2ccc(O)c(O)c2)cs1)n1cc(Cl)cn1 | - | - | luminescence | 110 µM |
| COc1cc2ccnc3c2c(c1OC(=O)c1cccc(F)c1F)N(C)C=C3 | - | - | - | 37.7 µM |
| COC(=O)Cc1ccc2c(OC)cc(N)cc2n1 | - | - | p24 | 0.34 µg/mL |
| CC1=N/C(=C/c2ccccc2)C(=O)N1c1nc(C)cc(Cl)n1 | - | - | RT activity | 61.71 µg/mL |
| N#C[C@]1(CO)O[C@@H](n2cnc3c(=O)[nH]cnc32)C[C@@H]1O | LAI | - | cytopathic effect / MTT | 0.0278 µM |
| Nc1ccc(CO[C@H]2C(=O)Nc3ccc(Cl)cc3[C@@]2(C#CC2CC2)C(F)(F)F)cc1 | - | RT-L100I K103N | - | <3.848 µM |
| Nc1ccn([C@@H]2C[C@H](CO)CO2)c(=O)n1 | - | - | - | >100 µM |
| CN1[C@H](c2cccc(Cl)c2)c2ccccc2S1(=O)=O | - | - | p24 / RT activity | 5.28 µM |
| C=C(C)CNC(=O)[C@H]1N(C(=O)[C@@H](O)[C@H](CCc2ccccc2)NC(=O)COc2c(C)cc(N)cc2C)CSC1(C)C | - | - | - | 0.01 µM |
| O=c1[nH]c(SCc2cn[nH]n2)nc(-c2ccccc2)c1Cl | IIIB | - | - | 1.38 µg/mL |
| C=CCOC1(C(F)(F)F)OC(=O)Nc2ccc(F)c(F)c21 | - | - | - | <0.00647 µM |
| Nc1ncnc2c1ncn2[C@H]1C=C[C@](OCP(=O)(O)O)(c2ccccc2)C1 | - | - | - | 28.3 µM |
| COc1cc2ccnc3c2c(c1OC(=O)N1CCCC1)N(C)C=C3 | - | - | - | >100 µM |
| C/C(=C\Cn1ccc(=O)[nH]c1=O)CO | - | - | - | >100 µg/mL |
| CN1CC(=O)C(=O)C=C1Cn1cnc([N+](=O)[O-])c1Nc1cccc(Cl)c1 | IIIB | - | MTT | 4.27 µM |
| C=C(C)[C@@H]1CC[C@]2(C(=O)NCCCCCCCCC(=O)N[C@H](CCC(N)=O)C(=O)OC)CC[C@]3(C)[C@H](CC[C@@H]4[C@@]5(C)CC[C@H](OC(=O)CC(C)(C)C(=O)O)C(C)(C)[C@@H]5CC[C@]43C)[C@@H]12 | NL4-3 | V362I | absorbance | 0.016 µM |
| CN1C(C)(c2cccc(Cl)c2)c2ccccc2S1(=O)=O | - | - | p24 / RT activity | 0.198 µM |
| OC/C(=C/Cn1cnc2c(Cl)ncnc21)c1ccccc1 | - | - | - | >100 µg/mL |
| CCCCCCCCCCCCCCCC(=O)NC1C(COP(=O)(O)OC2C(O)C(COP(=O)(O)OC3CC(CO)OC3n3cnc4c(N)ncnc43)OC2n2cnc3c(N)ncnc32)OC(n2cnc3c(N)ncnc32)C1O | - | - | syncytia | <100 µM |
| Cc1ccc(OCCn2ccc(=O)[nH]c2=O)c(Cc2ccccc2)c1 | - | Y181C/K103N | - | 0.57 µM |
| COc1cc2ccnc3c2c(c1OC(=O)c1ccc(C)cc1)N(C)C=C3 | - | - | - | 9.2 µM |
| O=C1Nc2ccc(Cl)cc2C(C#Cc2cccnc2)(C(F)(F)F)O1 | - | RT-K103N | - | <1.11 µM |
| N#C[C@]1(CO)O[C@@H](n2cnc3c(N)nc(N)nc32)C[C@@H]1O | LAI | - | cytopathic effect / MTT | <0.03 µM |
| Cc1cc(Cl)nc(N2C(=O)/C(=C\c3ccccc3)N=C2c2ccccc2)n1 | - | - | RT activity | 52.28 µg/mL |
| C/C(=C\Cn1cc(C)c(=O)[nH]c1=O)CO | - | - | - | >100 µg/mL |
| CCOCn1c(Cc2ccccc2)c(C=O)c(=O)[nH]c1=O | - | RT-Y181C | - | >100 µM |
| C=C1[C@H](CO)OC[C@@H]1n1ccc(N)nc1=O | - | - | - | >100 µM |
| COc1cc(N)cc2[nH]cc(C(=O)O)c12 | - | - | p24 | 0.87 µg/mL |
| O=C1CC(C#CC2CC2)(C(F)(F)F)c2cc(Cl)ccc2N1 | - | RT-K103N | - | <0.177 µM |
| CC(=O)Nc1ccc(S(=O)(=O)N(CC(C)C)C[C@@H](O)[C@H](CCc2ccccc2)NC(=O)CN2C(=O)c3ccccc3C2=O)cc1 | - | - | - | 2 µM |
| COc1cc(/C=C2/N=C(c3ccccc3)N(c3nc(C)cc(Cl)n3)C2=O)ccc1O | - | - | RT activity | 42.47 µg/mL |
| CC(C)CCOC1(C(F)(F)F)OC(=O)Nc2ccc(Cl)cc21 | - | - | - | <0.01007 µM |
| Cc1ccccc1CNC(=O)[C@H]1N(C(=O)[C@@H](O)[C@H](CCc2ccccc2)NC(=O)O[C@H]2CCOC2)CSC1(C)C | - | - | - | 0.02 µM |
| O=C1Nc2ccc(Cl)cc2C(C#Cc2ccsc2)(C(F)(F)F)O1 | - | - | - | <0.00447 µM |
| CN1C(c2ccccc2)c2cc(Cl)ccc2S1(=O)=O | - | - | p24 / RT activity | 26.1 µM |
| CCCCCCCCCCCC[C@@]1(O)C[N+](C)(C)C[C@@H](CC(=O)[O-])O1 | RF | - | virus yield | ~100 µg/mL |
| CCCc1cc(=O)oc2c3c(c4c(c12)OC(C)(C)CC4)O[C@H](C)[C@@H](C)C3=O | - | RT-Y188H | cytopathic effect / XTT | >100 µM |
| CCc1c(C(=O)c2cc(C)cc(C)c2)n(CC2CC=CC2)c(=O)[nH]c1=O | IIIB SJ-3366 P4 (RT Y181C) | RT-Y181C | - | 0.025 µM |
| O=c1ccn([C@H]2C[C@H](CO)CO2)c(=O)[nH]1 | - | - | - | >100 µM |
| FC(F)(Sc1ncccn1)c1nc2ccccc2o1 | OC/100 | RT-L100I | - | 4.08 µM |
| COC(=O)c1cc2ccc(N)cc2[nH]1 | - | - | p24 | 0.2 µg/mL |
| CC(=O)Nc1nc(-c2cccc(NC(=O)C(CNC(=O)[C@@H](N)CCCN=C(N)N)NC(=O)[C@@H](N)CCCN=C(N)N)c2)cs1 | NL4-3 | - | luciferase | 1.79 µM |
| COc1ccc(/C=C2/N=C(C)N(c3nc(C)cc(=O)[nH]3)C2=O)cc1 | - | - | RT activity | 51.6 µg/mL |
| CCCCCCCCCCCCCCCC(=O)NC1C(COP(=O)(O)OC2CC(COP(=O)(O)OC3C(O)C(CO)OC3n3cnc4c(N)ncnc43)OC2n2cnc3c(N)ncnc32)OC(n2cnc3c(N)ncnc32)C1O | - | - | p24 | <300 µM |
| COc1cc2ccnc3c2c(c1OC(=O)c1ccc(CCl)cc1)N(C)C=C3 | - | - | - | 4 µM |
| O=C1Nc2ccc(Cl)cc2C(C#Cc2ccccn2)(C(F)(F)F)O1 | - | - | - | <0.00539 µM |
| COc1cc2ccnc3c2c(c1OC(=O)c1cccc(C)c1)N(C)C=C3 | - | - | - | 9.9 µM |
| C/C=C/COC1(C(F)(F)F)OC(=O)Nc2ccc(Cl)cc21 | - | RT-K103N | - | <0.404 µM |
| Nc1nc(NC2CC2)c2ncn([C@H]3C=C[C@@H](CO)C3)c2n1 | - | - | - | 0.13 µM |
| O=c1[nH]c(SCc2cn[nH]n2)nc(-c2ccc(F)cc2)c1Cl | ADA5 | - | - | 1.05 µg/mL |
| CCCCCCCCCCCCCCCCCCOC(=O)/C=C/c1ccc(O)c(O)c1 | - | - | cytopathic effect | 0.16 µg/mL |
| C=Cc1c(Cc2ccccc2)n(COCC)c(=O)[nH]c1=O | - | RT-Y181C | - | 100 µM |
| Cc1cc(=O)[nH]c(N2C(=O)/C(=C\c3ccc(Cl)cc3)N=C2c2ccccc2)n1 | - | - | RT activity | 60.58 µg/mL |
| C=C1[C@H](CO)OC[C@@H]1n1cnc2c(N)ncnc21 | - | - | - | >100 µM |
| CC(=O)Nc1nc(-c2cccc(NC(=O)[C@@H](N)CCCCN)c2)cs1 | NL4-3 | - | luciferase | 0.63 µM |
| CN1N=C(N)c2cn([C@@H]3O[C@H](COP(=O)(O)O)[C@@H](O)[C@H]3O)c3ncnc1c23 | IIIB | - | p24 | 0.02 µM |
| COc1ccc([C@H](O)[C@H](CO)Oc2ccc(C(=O)CCO)cc2OC)cc1OC | - | - | cytopathic effect | 2.78 µg/mL |
| C/C(=C\Cn1ccc(N)nc1=O)CO | - | - | - | >100 µg/mL |
| CN1C(c2cccc(F)c2)c2ccccc2S1(=O)=O | - | - | p24 / RT activity | 0.173 µM |
| Nc1nc2c(ncn2CC=C(CO)CO)c(=O)[nH]1 | - | - | - | >100 µg/mL |
| COc1ccc(S(=O)(=O)N(CC(C)C)C[C@@H](O)[C@H](Cc2ccccc2)NC(=O)O[C@H]2CO[C@H]3O[C@@H]4OCC[C@@H]4[C@H]32)cc1 | LAI | - | - | 0.0018 µM |
| CCCCCCCCCc1ccc(OCCOCCOCCOCCOCCOCCOCCOCCOCCO)cc1 | RF | - | virus yield | ~32 µg/mL |
| CCOC(=O)CNc1nc(Nc2ccc(Br)cc2)nc(Oc2cc(=O)oc3ccccc23)n1 | RES056 | RT-resistant RES056 (K103N + Y181C) | MTT | >51.28 µg/mL |
| CCOCn1c(Cc2ccccc2)c(C#N)c(=O)[nH]c1=O | - | RT-Y181C | - | >100 µM |
| CCCCN1C(=O)N(Cc2ccc3[nH]nc(N)c3c2)[C@H](Cc2ccccc2)[C@H](O)[C@@H](O)[C@H]1Cc1ccccc1 | HXB2 | - | - | <0.069 µM |
| Cc1ccccc1CNC(=O)[C@H]1N(C(=O)[C@@H](O)[C@H](CCc2ccccc2)NC(=O)O[C@H]2CO[C@H]3OCC[C@H]32)CSC1(C)C | - | - | - | 0.009 µM |
| CC1=N/C(=C/C2C=Nc3ccccc32)C(=O)N1c1nc(C)cc(Cl)n1 | - | - | RT activity | 58.88 µg/mL |
| Nc1ccn([C@H]2CC[C@@H](CO)O2)c(=O)n1 | NL4-3 | V182I | β-galactosidase | 0.686 µM |
| C/C=C1/N=C(C)N(c2nc(C)cc(Cl)n2)C1=O | - | - | RT activity | 67.56 µg/mL |
| CCOC(=O)CNc1nc(Nc2ccc(C)cc2)nc(Oc2cc(=O)oc3ccccc23)n1 | RES056 | RT-resistant RES056 (K103N + Y181C) | MTT | >45.53 µg/mL |
| COC(=O)c1cc(C(F)(F)F)c2c(OC)cc(N)cc2n1 | - | - | p24 | 0.89 µg/mL |
| COc1cc(C[C@H]2CO[C@@H](O[C@@H](CCc3ccccc3)CC(=O)c3ccc(O)cc3)[C@@H]2Cc2ccc(O)c(OC)c2)ccc1O | - | - | cytopathic effect | 0.39 µg/mL |
| O=c1[nH]c(=O)n(CC=C(CO)CO)cc1I | - | - | - | >100 µg/mL |
| Cc1cc(=O)[nH]c(N2C(=O)/C(=C\c3ccco3)N=C2c2ccccc2)n1 | - | - | RT activity | 49.12 µg/mL |

Repeating the first 7 entries:

smiles,strain,changes,read by,value
COc1cc2ccnc3c2c(c1OC(=O)c1ccc(C#N)cc1)N(C)C=C3,-,-,-,8.2 µM
C/C(=C\Cn1cnc2c(=O)[nH]cnc21)CO,-,-,-,47.2 µg/mL
CN1CC(=O)C(=O)C=C1Cn1cnc([N+](=O)[O-])c1Nc1cc(Cl)cc(Cl)c1,IIIB,-,MTT,1.3 µM
Nc1ncnc2c1ncn2C/C=C(/CO)c1ccccc1,-,-,-,>100 µg/mL
Cc1ccnc(SC(F)(F)c2nc3ccccc3o2)n1,IIIB,-,-,0.067 µM
CCCCCCCCCCCCCCCCOCCCOP(=O)(O)COCCn1cnc2c(=O)[nH]c(N)nc21,-,-,plaque count,0.001 µM
CN1C(c2cccc(Cl)c2Cl)c2ccccc2S1(=O)=O,-,-,p24 / RT activity,0.039 µM